Some results are limits rather than exact numbers.

The data set has as its system T4 lymphocytes (CEM cell line). Kind of data set: NCI anti-HIV screen, toxicity control in uninfected cells. The class given is cell-based. Conditions: Table XI.

Consider Bis-distamycin [Compound 16], for which the IC50 was above 100 µM.

The values are drawn from patent publication US5616606A, “Oligopeptide antiretroviral agents” (priority 1995, dated 1997).
